A mixed list of measured activities; the numbers were collected in NIAID ChemDB.

All rows: whole-cell or culture tests; agent: Aspergillus niger; strain: MTCC 282; read-out: MIC100

MIC50, MIC90 and the like: level of inhibition, or share of isolates inhibited. Conditions beyond the fields shown may differ between rows.

compound | result
CC(=O)Nc1ccc(OCC(=O)N2N=C(c3nc4ccccc4[nH]3)CC2c2ccc(C)cc2)cc1 | 500 µg/mL
Cc1ccc(-c2nc3ccccc3c(=O)n2-c2ccc(C(=O)NN3C(=O)CSC3c3ccc(F)cc3)cc2)cc1 | 500 µg/mL
Cn1c(=O)ccc2c3sc(N4CCN(c5cccc(Cl)c5Cl)CC4)nc3ccc21 | 62.5 µg/mL
Cc1nc(OCc2nc(-c3ccco3)n[nH]2)c2ccccc2n1 | 6.25 µg/mL
O=c1ccc2c(ccc3nc(N4CCN(c5cccc(C(F)(F)F)c5)CC4)sc32)o1 | 100 µg/mL
FC(F)(F)c1nc(OCc2nc(-c3ccc(Cl)cc3)n[nH]2)c2ccccc2n1 | 12.5 µg/mL
Cc1ccc(-c2nc3ccccc3c(=O)n2-c2ccc(C(=O)NN3C(=O)/C(=C/c4cccc(Br)c4)SC3c3ccc(F)cc3)cc2)cc1 | 100 µg/mL
CC(=O)Nc1ccc(OCC(=O)N2N=C(c3nc4ccccc4[nH]3)CC2c2cccc([N+](=O)[O-])c2)cc1 | 500 µg/mL
CC(=O)N1CCN(c2nc3ccc4oc(=O)ccc4c3s2)CC1 | 200 µg/mL
COc1ccc(/C=C2\SC(c3ccc(F)cc3)N(NC(=O)c3ccc(-n4c(-c5ccc(C)cc5)nc5ccccc5c4=O)cc3)C2=O)c(O)c1 | 1000 µg/mL
c1ccc(-c2n[nH]c(COc3ncnc4ccccc34)n2)cc1 | 12.5 µg/mL
COc1ccc(CN2CCN(c3nc4ccc5c(ccc(=O)n5C)c4s3)CC2)c(OC)c1OC | 50 µg/mL
CC(=O)Nc1ccc(OCC(=O)N2N=C(c3nc4ccccc4[nH]3)CC2c2ccccc2[N+](=O)[O-])cc1 | 50 µg/mL
CN1CCN(c2nc3ccc4oc(=O)ccc4c3s2)CC1 | 200 µg/mL
Cc1ccc(-c2n[nH]c(COc3nc(C)nc4ccccc34)n2)cc1 | 25 µg/mL
O=c1ccc2c(ccc3nc(N4CCN(c5cccc(Cl)c5Cl)CC4)sc32)o1 | 100 µg/mL
CC(=O)Nc1ccc(OCC(=O)N2N=C(c3nc4ccccc4[nH]3)CC2c2cccc(F)c2)cc1 | 100 µg/mL
Cc1ccc(-c2nc3ccccc3c(=O)n2-c2ccc(C(=O)NN3C(=O)/C(=C/c4ccccc4)SC3c3ccc(F)cc3)cc2)cc1 | 1000 µg/mL

Again, the opening 2 rows:

{"compound": "CC(=O)Nc1ccc(OCC(=O)N2N=C(c3nc4ccccc4[nH]3)CC2c2ccc(C)cc2)cc1", "result": "500 µg/mL"}
{"compound": "Cc1ccc(-c2nc3ccccc3c(=O)n2-c2ccc(C(=O)NN3C(=O)CSC3c3ccc(F)cc3)cc2)cc1", "result": "500 µg/mL"}